In patent publication US20040235103 one finds activity on this sequence data, which are given here for 2 sequences.

Where a chain is given by its changes, count along the chain named. The exact form of at least one protein or probe is not confirmed. Where a protein sequence is shown, tags need not be part of it.

Test in all cases: enzyme reaction in vitro
What all share (details): kobs supercoiled substrate loss, 10 mM Mg acetate, 37 C, purified recombinant protein, protein details: purified from pGRTYB35 construct

Data set [1] relates to T1, Tn5 transposase EK54/LP372/PY242 E54K,P242Y,L372P (Transposon Tn5).
T1 sequence (limits assumed): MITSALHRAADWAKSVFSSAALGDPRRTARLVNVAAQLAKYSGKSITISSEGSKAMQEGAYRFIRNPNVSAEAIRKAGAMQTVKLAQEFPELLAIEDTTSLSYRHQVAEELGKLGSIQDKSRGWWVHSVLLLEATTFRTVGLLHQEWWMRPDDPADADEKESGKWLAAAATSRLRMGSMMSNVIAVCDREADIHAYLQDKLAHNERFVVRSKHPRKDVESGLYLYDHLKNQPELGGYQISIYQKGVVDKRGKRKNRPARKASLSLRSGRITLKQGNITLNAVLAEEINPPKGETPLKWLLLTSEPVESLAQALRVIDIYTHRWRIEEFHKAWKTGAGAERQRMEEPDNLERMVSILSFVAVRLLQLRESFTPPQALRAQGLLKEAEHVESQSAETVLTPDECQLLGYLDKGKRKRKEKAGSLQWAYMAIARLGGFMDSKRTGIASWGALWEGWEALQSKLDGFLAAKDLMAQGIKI

Data set [2] concerns T2, Tn5 transposase EK54/LP372 E54K,L372P (Transposon Tn5).
T2 sequence (limits assumed): T1 sequence (limits assumed) with Y242P

For data set [3], the system named is T3, Tn5 transposase EK54/LP372/PD242 E54K,P242D,L372P (Transposon Tn5).
T3 sequence (limits assumed): T1 sequence (limits assumed) with Y242D

Data set [4] relates to T4, Tn5 transposase EK54/LP372/PV242 E54K,P242V,L372P (Transposon Tn5).
T4 sequence (limits assumed): T1 sequence (limits assumed) with Y242V

Data set [5] relates to T5, Tn5 transposase EK54/LP372/PA242 E54K,P242A,L372P (Transposon Tn5).
T5 sequence (limits assumed): T1 sequence (limits assumed) with Y242A

Data set [6] relates to T6, Tn5 transposase EK54/LP372/PG242 E54K,P242G,L372P (Transposon Tn5).
T6 sequence (limits assumed): T1 sequence (limits assumed) with Y242G

For data set [7], the system named is T7, Tn5 transposase EK54/LP372/PL242 E54K,P242L,L372P (Transposon Tn5).
T7 sequence (limits assumed): T1 sequence (limits assumed) with Y242L

In data set [8] the test system is T8, Tn5 transposase EK54/LP372/PI242 E54K,P242I,L372P (Transposon Tn5).
T8 sequence (limits assumed): T1 sequence (limits assumed) with Y242I

The subject of data set [9] is T9, Tn5 transposase EK54/LP372/PF242 E54K,P242F,L372P (Transposon Tn5).
T9 sequence (limits assumed): T1 sequence (limits assumed) with Y242F

[10] abbreviates: SD 0.13, 100 nM Tnp, variant of wild-type OE (pKJ1).
Where [11] appears, read: SD 0.08, 100 nM Tnp, variant of wild-type OE (pKJ1).

For the sequence “CTGACTCTTATACACAAGT (double strand) [wild-type OE (pKJ1)]”, the activity on this sequence in data set [1] (SD 0.04, 250 nM Tnp) is 0.6 s⁻¹; in data set [2] (SD 0.03, 250 nM Tnp), 0.79 s⁻¹; in data set [3] (SD 0.03, 250 nM Tnp) it was 0.55 s⁻¹; in data set [4] (SD 0.06, 250 nM Tnp), 1.42 s⁻¹; in data set [5] (SD 0.14, 250 nM Tnp), 2.52 s⁻¹; in [6] (SD 0.10, 250 nM Tnp) it was 2.5 s⁻¹. In addition, the activity on this sequence in data set [7] (SD 0.07, 250 nM Tnp) came out at 1.56 s⁻¹; in data set [8] (SD 0.03, 250 nM Tnp) it was 0.94 s⁻¹; in data set [9] (SD 0.03, 250 nM Tnp) it was 0.58 s⁻¹.
Regarding “CTGTCTCTTATACACATCT (double strand) [modified OE (pKJ4)]”, the activity on this sequence in data set [1] (setting [10]) came to 2.48 s⁻¹; in [2] (setting [11]), 1.45 s⁻¹; in data set [3] (SD 0.18, 100 nM Tnp, variant of wild-type OE (pKJ1)), 2.93 s⁻¹; in data set [4] (setting [10]), 2.8 s⁻¹; in data set [5] (SD 0.09, 100 nM Tnp, variant of wild-type OE (pKJ1)), 2.6 s⁻¹; in data set [6] (setting [11]) it was 2.22 s⁻¹. Also, the activity on this sequence in [7] (SD 0.19, 100 nM Tnp, variant of wild-type OE (pKJ1)) worked out at 2.89 s⁻¹; in data set [8] (SD 0.36, 100 nM Tnp, variant of wild-type OE (pKJ1)) it was 3.01 s⁻¹; in data set [9] (SD 0.12, 100 nM Tnp, variant of wild-type OE (pKJ1)), 1.9 s⁻¹.
